According to article PMC7843721:
Changes are numbered by the printed parent chain. Construct, isoform or probe ends are uncertain for at least one entry. Where a protein sequence is shown, tags need not be part of it.

Experiments:
Assay in all cases: EMSA
MtrA K108Q = target: T1, MtrA K108Q (UniProt P9WGM7); conditions: no AcP, no change vs WT; recombinant protein; protein details: 6xHis; label: 32P 5'-end; probe letters rebuilt from the primers and the genome
T1 sequence (looked up, limits assumed): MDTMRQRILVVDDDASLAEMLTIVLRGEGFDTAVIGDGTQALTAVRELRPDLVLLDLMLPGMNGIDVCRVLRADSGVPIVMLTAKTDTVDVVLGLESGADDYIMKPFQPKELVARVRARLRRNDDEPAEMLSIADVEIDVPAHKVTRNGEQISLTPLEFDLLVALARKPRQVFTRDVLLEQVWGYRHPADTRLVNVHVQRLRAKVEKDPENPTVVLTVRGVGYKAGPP

MtrA K108R = target: T2, MtrA K108R (UniProt P9WGM7); conditions: no AcP, similar to WT; recombinant protein; protein details: 6xHis; label: 32P 5'-end; probe letters rebuilt from the primers and the genome
T2 sequence (looked up, limits assumed): T1 sequence (looked up, limits assumed) with Q108R

MtrA K110R = target: T3, MtrA K110R (UniProt P9WGM7); conditions: no AcP, similar to WT; recombinant protein; protein details: 6xHis; label: 32P 5'-end; probe letters rebuilt from the primers and the genome
T3 sequence (looked up, limits assumed): T1 sequence (looked up, limits assumed) with Q108K, K110R

MtrA K110R K207R = target: T4, MtrA K110R K207R (UniProt P9WGM7); conditions: recombinant protein, protein details: 6xHis, label: 32P 5'-end, probe letters rebuilt from the primers and the genome
T4 sequence (looked up, limits assumed): T1 sequence (looked up, limits assumed) with Q108K, K110R, K207R

MtrA K207R = target: T5, MtrA K207R (UniProt P9WGM7); conditions: no AcP, similar to WT; recombinant protein; protein details: 6xHis; label: 32P 5'-end; probe letters rebuilt from the primers and the genome
T5 sequence (looked up, limits assumed): T1 sequence (looked up, limits assumed) with Q108K, K207R

Measured: binding result

GATCGTCGACCATCGGTGATTGGGTCTGATGAAGTTTGGTAAGTAGAGTCAACGCGCTATATCCCCGACCTCGGCAACACTCAACCACCTACACAGCGAACAAAAAGCAAAATGGGCCCTCCGAAACCTAGAGGCCCCACCCGTTCGATCACAAGACGGTAACGAACCGGCCAATGTTGAGCAACTCCGGCGCGCGGGTGTTATGGGCCGCTCGGCGCGCTCATTGGCGCATCCACCCTAGCCCATAAGCTCGGCGAGCGTTGCTTGTGGTGATGAGCGCCACCTCTTCGGGGCGCCGATTGACCAGTTCAGCCAGCGCCCGCACGGTATAGGGCAGGCAGTACGGTTCGTTCGCCAAGCCCCGGTGGGGATGCGGGGTCAAATACGGTGCATCGGTTTCCACCAAAAGCTGCTCCACCGGCATCAGCGGGACGGCTTCCCGTAGTTCACGGGCGGTACGGAGAATTCGATC (double strand) [rpfB promoter 440 bp]
binds: MtrA K108Q | MtrA K108R | MtrA K110R | MtrA K110R K207R; no AcP, similar to WT | MtrA K110R K207R; with AcP (5 mM), no impact | MtrA K207R

TTGCGCCCTTTCACCTCACGATGAGTTCGATCCCGTGGCTAGCGCCCCGCTAGCGTGGGGACTGCCAACGACGAATGCCCATGACGCGTGACCCGCCACGACGGCCGCAACAGCAGTCGAACAACAACCGTAGAGCTTCTCACGTCAACTTGAAAGTTCATCATTGACCTCTGACCCACCGCGACGAGCCAGTTATGCGGGTGGTATCCAGCGAACGATCCCCAGCGCTGTCTTTCCAAGAACAAACGACGAAGAAATCTCGGTAACAGTATTAGAGGGTGTGCAGTTTGGGGACAGTCTGGTCTTGGTGCAGGTCGACGTCGGTCGGAGTTGTGGATGACGGTGGCGATGACTGTGGGGTGTGTGTTGGGTCGGTGGGGATGAGGCGTGGGTTGTGAACGGAACCGCCGGGACTGTATGAGTCTGTGCGCGGTTTGTGCACAGCGACACTCACAGCCAATCTCTGTGACTGGTGTGACCTGGGAGAGAGAAGTTTTTTTAAGAACGTTGTCGGAAGAACACGCCGTGCTAGCGCTTGGAGCGCTGACGGATG (double strand) [oriC 526 bp]
binds: MtrA K108Q | MtrA K108R | MtrA K110R | MtrA K110R K207R; no AcP, similar to WT | MtrA K110R K207R; with AcP, no impact | MtrA K207R
